Target: SaHPPK (Staphylococcus aureus, UniProt A0A0H3JXR3)
Experiment: SPR binding to SaHPPK
Conditions: read-out: K D a, in the presence of 10 mM Mg2+, 293 K
Source text: Initially, the binding of each of the test compounds to SaHPPK was quantitatively assessed using SPR (Fig. S1, S2). […] Moreover, all sensorgrams (Fig. S1 and S2) were of high quality and consistent with near perfect 1∶1 stoichiometric binding of analogues. Table 1 lists the estimated equilibrium dissociation constants (KD). […] This supports the hypothesis that the 8-mercapto group of 8-MG aids binding through the formation of one or more favorable interactions with SaHPPK.
All SPR binding experiments were performed as described previously. The only difference was the use of a sulfhydryl reactive maleimide-activated biotin derivative (Thermo Scientific, 1-biotinamido-4-(4′-[maleimidoethylcyclohexane]-carboxamido)butane. The maleimide-activated biotin was attached to the exposed surface cysteine residue of SaHPPK according to manufacturer’s instructions. The resulting site-specific biotinylated protein was immobilized onto the sensor chip surface using the Biotin capture kit (GE Healthcare). All analogues were serially diluted (either 2- or 3-fold from 126 µM down to 1.5 µM) in SPR binding buffer (50 mM HEPES, 150 mMNaCl, 1 mM TCEP, 0.05% (v/v) Tween-20, 10 mM MgCl2, 5% (v/v) DMSO, pH 8.0) and injected for 30 sec contact time at 60 µL/min and then allowed to dissociate for 60 sec. Binding sensorgrams were processed using the Scrubber (version 2c, BioLogic Software, Campbell, Australia). To determine the binding affinity (equilibrium dissociation constant; KD), responses at equilibrium for each compound were fit to a 1∶1 steady state affinity model available within Scrubber.

The chains behind the UniProt entries cited, without tags or fusion partners. Residues count along the entry.
UniProt A0A0H3JXR3, 1-158: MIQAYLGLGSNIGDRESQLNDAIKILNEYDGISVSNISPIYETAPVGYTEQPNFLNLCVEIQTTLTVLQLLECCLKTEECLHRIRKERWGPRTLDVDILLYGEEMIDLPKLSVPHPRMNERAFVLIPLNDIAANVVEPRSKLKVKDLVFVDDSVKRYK

SMILES | Kd [µM]
Nc1nc2[nH]c(N3CCOCC3)nc2c(=O)[nH]1 | 246
Nc1nc2[nH]c(Br)nc2c(=O)[nH]1 | 248
Cc1nc2c(=O)[nH]c(N)nc2[nH]1 | 159
Nc1nc2[nH]c(O)nc2c(=O)[nH]1 | 257

— PMC3614987, “Exploring the Chemical Space around 8-Mercaptoguanine as a Route to New Inhibitors of the Folate Biosynthesis Enzyme HPPK” (PLoS ONE, 2013)
